Measured values from several laboratories, pooled; numbers as filed in NIAID ChemDB.

All rows: cytotoxicity tests; cells: MT-4; read by: MTT; endpoint: CC50

Conditions beyond the fields shown may differ between rows.

CC1C(=O)Nc2ccc(Cl)cc2S(=O)(=O)N1Cc1cc(Cl)cc(Cl)c1 ; result: >200 µM
CCOCn1c2c(c(=O)[nH]c1=O)Nc1ccc(Cl)cc1S2 ; result: 28 µg/mL
C=C(/C=C/P(=O)(O)O)CCn1cnc2c(=O)[nH]c(N)nc21 ; result: >1000 µM
CC(C)c1nc(SCC(N)=O)n(Cc2ccncc2)c1Cc1ccccc1 ; result: >100 µM
Cc1ccc2c(c1)Sc1c(c(=O)[nH]c(=O)n1COCc1ccccc1)N2 ; result: 1.9 µg/mL
C[C@@H]1[C@@H]2O[C@]3(NC(=O)OC(C)(C)C)[C@@H](C)[C@H]1O[C@H]2[C@@H]3Br ; result: >72 µM
Cc1cc(C)c(Nc2nc(NC3CCN(Cc4ccc(C(N)=O)cc4)CC3)nc3nc[nH]c23)c(C)c1 ; result: 23.85 µM
Cc1cc(C#N)cc(C)c1Oc1ccnc(NC2CCN(CC(=O)Nc3ccccc3F)CC2)n1 ; result: 119 µM
CN1CCN(C2c3nnc(-c4ccccc4)n3-c3ccccc3-n3c(-c4ccccc4)nnc32)CC1 ; result: 126 µM
COc1cc(Oc2c(C)cc(C)cc2C)cc(Nc2ccc(C#N)cc2)n1 ; result: 29 µM
CCOC(=O)P(=O)(OCC)OC[C@H]1O[C@@H](n2cc(C)c(=O)[nH]c2=O)C[C@@H]1N=[N+]=[N-] ; result: 141.7 µM
O=c1[nH]cnc2c1ncn2[C@H]1CC[C@@H](CO)O1 ; result: >212 µM
CCOCn1c2c(c(=O)[nH]c1=O)Nc1ccccc1S2 ; result: 50 µg/mL
O=C1CCC(c2ccccc2)C(=O)N1CCCN1CCN(c2ncccn2)CC1 ; result: >100 µM
CC(C)(C)NC(=O)[C@@H]1C[C@@H]2CCCC[C@@H]2CN1C[C@@H](O)[C@H](Cc1ccccc1)NC(=O)[C@H](CC(N)=O)NC(=O)c1ccc2ccccc2n1 ; result: >0.3 µg/mL
CN1CCN(CCCNCc2ccc(CNCCCN3CCN(C)CC3)cc2)CC1 ; result: >300 µM
CC(=O)c1cn(Cc2ccncc2)c(Sc2cc(Cl)cc(Cl)c2)c1C(C)C ; result: >200 µM
CC(C)Nc1cccnc1N1CCN(C(=O)c2cc3cc(NS(C)(=O)=O)ccc3[nH]2)CC1 ; result: >43.8 µM
c1cc(CCNCCCN2CCOCC2)ccc1CCNCCCN1CCOCC1 ; result: 241 µM
N#C[C@]1(CO)O[C@@H](n2cnc3c(=O)[nH]cnc32)C[C@@H]1O ; result: 23 µM
Cc1cc(=O)c(O)c(C(=O)NCc2ccc(Cl)cc2)o1 ; result: >195.5 µM
CONC(=O)c1cn(Cc2ccncc2)c(Sc2cc(Cl)cc(Cl)c2)c1C(C)C ; result: 40 µM
C[C@@H]1[C@H](O)[C@H](C)[C@@]2(NC(=O)OC(C)(C)C)O[C@@H]1[C@@H]1O[C@@H]12 ; result: >440 µM
O=c1[nH]cnc2c1ncn2[C@H]1CC[C@@H](CO)O1 ; result: >1000 µM
Cc1ccnc2c1NC(=O)c1cccnc1N2C1CC1 ; result: >200 µM
Cc1cc(C)cc(C(=O)c2cccnc2Nc2ccc(C(N)=O)cc2)c1 ; result: 36.41 µM
CCOCn1c(SCC(N)=O)nc(C(C)C)c1Cc1ccccc1 ; result: >100 µM
CC(C)c1c(C(O)c2ccccc2)cn(Cc2ccncc2)c1Sc1cc(Cl)cc(Cl)c1 ; result: 20 µM
COc1ncccc1C(=O)c1cc(C)cc(C)c1 ; result: 7.33 µM
C[C@]1(CO)O[C@@H](n2ccc(N)nc2=O)C[C@@H]1O ; result: 0.062 µM
Cc1cc(C)c(CN2CCC(Nc3nc(Nc4c(C)cc(C)cc4C)c4[nH]cnc4n3)CC2)c(C)c1 ; result: 4.8 µM
Cc1cn([C@H]2C=C[C@@H](CO)O2)c(=O)[nH]c1=O ; result: >100 µM
O=Nc1c(O)n(CCOCCn2c(O)c(N=O)c3ccccc32)c2ccccc12 ; result: 238 µM
Cc1cc(C)cc(Cc2[nH]c(=S)[nH]c2C(C)C)c1 ; result: 38.61 µM
Cc1cc(C#N)cc(C)c1Oc1ccnc(NC2CCN(CC(=O)Nc3ccccc3Cl)CC2)n1 ; result: 1.507 µM
CC(C)c1c(C(=O)c2ccccc2)cn(Cc2ccncc2)c1Sc1cc(Cl)cc(Cl)c1 ; result: 45 µM
c1cc(CCNCCN2CCCC2)ccc1CCNCCN1CCCC1 ; result: 195 µM
c1ccc2c(c1)-n1c(nnc1-c1ccncc1)Cc1nnc(-c3ccncc3)n1-2 ; result: >200 µM
CC(C)c1nc(SCC(N)=O)n(COCc2ccccc2)c1CC1CCCCC1 ; result: 84.32 µM
CCOP(=O)(OC[C@H]1O[C@@H](n2cc(C)c(=O)[nH]c2=O)C[C@@H]1N=[N+]=[N-])C(=O)N1CCOCC1 ; result: 127 µM
CO/N=C1\C(=O)N(CCOCCN2C(=O)/C(=N/OC)c3cc(Cl)ccc32)c2ccc(Cl)cc21 ; result: 193 µM
Cc1nnc2n1-c1ccccc1-n1c(C)nnc1C2 ; result: >200 µM
CCc1c(Sc2cccc3ccccc23)nc(SCC(=O)c2ccccc2)[nH]c1=O ; result: 36.74 µM
C[C@@H]1C(=O)Nc2ccc(Cl)cc2S(=O)(=O)N1Cc1c(F)cccc1F ; result: >200 µM
C[C@@H]1[C@@H]2O[C@]3(NC(=O)OC(C)(C)C)[C@@H](C)[C@H]1O[C@H]2[C@@H]3I ; result: >63 µM
O=C(Cc1ccc(CC(=O)NCCCN2CCCC2)cc1)NCCCN1CCCC1 ; result: >156 µM
Cc1ncc([N+](=O)[O-])n1CCOC(c1ccccc1)c1ccco1 ; result: 84 µM
O=C1CCC(c2ccccc2)C(=O)N1CCCCN1CCN(c2ccc(F)cc2)CC1 ; result: 54 µM
CCN(C(C)C(=O)O)S(=O)(=O)c1cc(Cl)ccc1N ; result: >200 µM
C[C@H]1[C@@H]2O[C@]3(NC(=O)OC(C)(C)C)[C@@H](C)[C@H]1O[C@H]2[C@@H]3Br ; result: >72 µM
O=[N+]([O-])c1ccc(-c2nnc(-c3cccnc3)o2)cc1 ; result: 73.5 µg/mL
Cc1cc(C)cc(C(=O)c2cccnc2Oc2ccc(C=O)cc2)c1 ; result: 33.65 µM
OCc1cn(Cc2ccncc2)c(Sc2cc(Cl)cc(Cl)c2)c1C1CCCCC1 ; result: 84 µM
c1cc(CNCCN2CCOCC2)ccc1CNCCN1CCOCC1 ; result: 236.4 µM
CCOC(=O)P(=O)(OC[C@H]1O[C@@H](n2cc(C)c(=O)[nH]c2=O)C[C@@H]1N=[N+]=[N-])OC1CCCCC1 ; result: 37.1 µM
O=C1CCC(c2ccccc2)C(=O)N1 ; result: >100 µM
Cc1cc(C)cc(C(=O)c2cccnc2Oc2ccc(C(=O)O)cc2)c1 ; result: 150 µM
Cc1cc(C#N)cc(C)c1Oc1ccnc(NC2CCN(CC(=O)Nc3ccc(Cl)c(Cl)c3)CC2)n1 ; result: 1.275 µM
Cc1cn([C@H]2C[C@H](N=[N+]=[N-])[C@@H](CO)O2)c(=O)[nH]c1=O ; result: >93.55 µM
COc1ncccc1C(=O)c1cccc(C#N)c1 ; result: 255 µM
O=c1[nH]cnc2c1ncn2[C@H]1CC[C@@H](CO)O1 ; result: 529 µM
O=C(Cc1ccc(CC(=O)NCCN2CCCC2)cc1)NCCN1CCCC1 ; result: >323 µM
Cc1nnc2n1-c1ccccc1-n1c(C)nnc1C2C ; result: >200 µM
C[C@@H]1[C@H](O)[C@H](C)[C@@]2(NC(=O)OC(C)(C)C)O[C@@H]1[C@H]1O[C@H]12 ; result: >440 µM
Cc1cc(C)c(Nc2nc(NC3CCN(Cc4ccc(Br)cc4)CC3)nc3nc[nH]c23)c(C)c1 ; result: 11.45 µM
CCOCn1c(Cc2ccccc2)c(C(C)C)c(=O)[nH]c1=O ; result: >100 µM
c1cc(CCNCCN2CCOCC2)ccc1CCNCCN1CCOCC1 ; result: >320.1 µM
CO/N=C1\C(=O)N(CCOCCN2C(=O)/C(=N/OC)c3ccccc32)c2ccccc21 ; result: >11.97 µM
NC(=O)OCc1cn(Cc2ccncc2)c(Sc2cc(Cl)cc(Cl)c2)c1C1CCC1 ; result: 114.5 µM
Cc1cccc(NC(=O)CN2CCC(Nc3nccc(Oc4c(C)cc(C#N)cc4C)n3)CC2)c1 ; result: 1.679 µM
Cc1cc(C)cc(C(=O)c2cccnc2Nc2ccc(S(N)(=O)=O)cc2)c1 ; result: 176 µM

The first 8 rows once more:

| structure | result |
|---|---|
| CC1C(=O)Nc2ccc(Cl)cc2S(=O)(=O)N1Cc1cc(Cl)cc(Cl)c1 | >200 µM |
| CCOCn1c2c(c(=O)[nH]c1=O)Nc1ccc(Cl)cc1S2 | 28 µg/mL |
| C=C(/C=C/P(=O)(O)O)CCn1cnc2c(=O)[nH]c(N)nc21 | >1000 µM |
| CC(C)c1nc(SCC(N)=O)n(Cc2ccncc2)c1Cc1ccccc1 | >100 µM |
| Cc1ccc2c(c1)Sc1c(c(=O)[nH]c(=O)n1COCc1ccccc1)N2 | 1.9 µg/mL |
| C[C@@H]1[C@@H]2O[C@]3(NC(=O)OC(C)(C)C)[C@@H](C)[C@H]1O[C@H]2[C@@H]3Br | >72 µM |
| Cc1cc(C)c(Nc2nc(NC3CCN(Cc4ccc(C(N)=O)cc4)CC3)nc3nc[nH]c23)c(C)c1 | 23.85 µM |
| Cc1cc(C#N)cc(C)c1Oc1ccnc(NC2CCN(CC(=O)Nc3ccccc3F)CC2)n1 | 119 µM |

CCn is the concentration with n% toxicity to the cells.